Results of unrelated studies side by side (data: NIAID ChemDB).

All rows: target-level tests; organism: HIV; protein: Reverse transcriptase

ICn: concentration for n% inhibition. Lines come from different laboratories, so protocols vary. Blank or dashed fields: not listed here.

SMILES | mutations | read by | endpoint | strain or isolate | result
CCOc1ccccc1N1CCN(C(=O)c2cc3cc4c(cc3[nH]2)OCO4)CC1 | RT-Y181C P236L | - | IC50 | - | >50 µM
CO[P@](=O)(c1cc(C)cc(/C=C/C#N)c1)c1c(C(N)=O)[nH]c2ccc(Cl)c(F)c12 | Y181C | - | IC50 | - | 0.526 µM
Cc1c(C(C)c2c(F)cccc2F)nc(NC2CCCC2)[nH]c1=O | RT-V106A | nucleotide incorporation / radiometric | IC50 | - | 0.5 µM
NS(=O)(=O)c1ccc(CCNC(=O)Cc2cccs2)cc1 | - | nucleotide incorporation | IC50 | - | 2 µM
CC(C)Nc1cccnc1N1CCN(C(=O)c2cc3ccccc3[nH]2)CC1 | RT-V106A | nucleotide incorporation | IC50 | - | 9.1 µM
CC[C@]1(c2ccccc2)Oc2cccnc2-n2cccc2C1=O | RT-M41L K103N T215Y | nucleotide incorporation / radiometric | IC50 | MDR | 3.5 µM
CC(C)=CCN1Cc2cccc3[nH]c(=S)n(c23)C[C@@H]1C | RT-E138K(P66 ONLY) | - | IC50 | - | 0.28 µM
Cc1cn([C@@H]2O[C@H](CO[Si](C)(C)C(C)(C)C)C3(OS(=O)(=O)C=C3N)[C@H]2O[Si](C)(C)C(C)(C)C)c(=O)n(C)c1=O | RT-V106A P225H | RT activity | IC50 | - | >828 µM
C[C@H](Cn1cnc2c(N)ncnc21)OCP(=O)(O)OP(=O)(O)OP(=O)(O)O | RT-K65R | - | IC50 | - | 0.8 µM
CC(C)=CCN1Cc2cccc3[nH]c(=S)n(c23)C[C@@H]1C | - | nucleotide incorporation | IC50 | - | 9.83 µM
Cc1cn([C@@H]2O[C@H](CO[Si](C)(C)C(C)(C)C)C3(OS(=O)(=O)C=C3N)[C@H]2O[Si](C)(C)C(C)(C)C)c(=O)n(C)c1=O | RT-E138K(P66 ONLY) | - | IC50 | - | 2.6 µM
CC(C)=CCOc1cc(NC(=S)c2ccoc2C)ccc1Cl | RT-N137S | nucleotide incorporation / radiometric | IC50 | - | 0.05 µM
Nc1ccn([C@H]2CC[C@@H](COP(=O)(O)OP(=O)(O)OP(=O)(O)O)O2)c(=O)n1 | - | RT activity | Ki | - | 0.29 µM
Cc1cc(C)cc([C@]23SCCN2C(=O)c2ccccc23)c1 | RT-Y188L | ELISA | IC50 | - | 6.7 µM
CC(=O)c1ccc(C)cc1NC(C(N)=O)c1c(Cl)cccc1Cl | RT-V106A P225H | RT activity | IC50 | - | 16 µM
Nc1nc2c(ncn2[C@H]2CC[C@@H](COP(=O)(O)OP(=O)(O)OP(=O)(O)O)O2)c(=O)[nH]1 | RT-E138K | nucleotide incorporation | IC50 | - | 0.609 µM
CCOCn1c(Cc2ccccc2)c(C(C)C)c(=O)[nH]c1=O | RT-V106A P225H | RT activity | Ki | - | 0.73 µM
Nc1ccn([C@H]2CC[C@@H](COP(=O)(O)OP(=O)(O)OP(=O)(O)O)O2)c(=O)n1 | RT-K65R | - | IC50 | - | 23.4 µM
Nc1ncnc2c1ncn2[C@@H]1O[C@H](OCP(=O)(O)OP(=O)(O)OP(=O)(O)O)C=C1F | - | - | IC50 | - | 2.3 µM
Cc1cc(C)cc(Sc2c(C(C)C)c(=O)[nH]c(=S)n2COCCO)c1 | RT-E138K | nucleotide incorporation | IC50 | - | 29.9 µM
Cc1cn([C@H]2C=C[C@]3(COP(=O)(O)OP(=O)(O)OP(=O)(O)O)C[C@H]23)c(=O)[nH]c1=O | - | nucleotide incorporation / radiometric | IC50 | - | >0.5 µM
CC(C)=CCN1Cc2cccc3[nH]c(=S)n(c23)C[C@@H]1C | RT-V90A | RT activity | IC50 | - | 0.6 µM
O=C1c2ccccc2C2(c3ccccc3)SCCN12 | RT-Y188L | ELISA | IC50 | - | >200 µM
O=c1[nH]cnc2c1ncn2[C@H]1CC[C@@H](CO)O1 | RT-L74V | RT activity | IC50 | - | 2.9 µM
C#C[C@]1(COP(=O)(O)OP(=O)(O)OP(=O)(O)O)CC[C@@H](n2ccc(N)nc2=O)O1 | - | nucleotide incorporation / radiometric | IC50 | - | 0.2 µM
COc1ccc2c(c1)N(C(=O)OC(C)C)[C@@H](CSC)C(=S)N2 | RT-D67N K70R T215F K219Q K103N | RT activity | IC50 | - | 0.077 µg/mL
Cc1cn([C@@H]2O[C@H](CO[Si](C)(C)C(C)(C)C)[C@@]3(OS(=O)(=O)C=C3N)[C@H]2O[Si](C)(C)C(C)(C)C)c(=O)[nH]c1=O | RT-P95A | nucleotide incorporation / radiometric | IC50 | - | 0.9 µM
C/C=C/CSc1cc(NC(=S)c2ccsc2C)ccc1Cl | - | - | IC50 | - | 8 µM
Cc1c(Sc2ccccc2)n(COCCO)c(=O)[nH]c1=O | RT-Y181I Y188L | - | IC50 | - | >5 µM
CCc1c(Sc2ccccn2)n(COCc2ccccc2)c(=O)[nH]c1=O | RT-V90A | RT activity | IC50 | - | 0.07 µM
COc1ccccc1N1CCN(C(=O)c2cc3cc4c(cc3[nH]2)OCO4)CC1 | RT-Y181C P236L | - | IC50 | - | >50 µM
Cc1occc1C(=S)Nc1ccc(Cl)c(/C=N/OC(C)(C)C)c1 | - | - | IC50 | - | 6.2 µM

The last 2 rows once more:

COc1ccccc1N1CCN(C(=O)c2cc3cc4c(cc3[nH]2)OCO4)CC1 ; mutations: RT-Y181C P236L ; endpoint: IC50 ; result: >50 µM
Cc1occc1C(=S)Nc1ccc(Cl)c(/C=N/OC(C)(C)C)c1 ; endpoint: IC50 ; result: 6.2 µM